A mixed list of measured activities; the numbers were collected in NIAID ChemDB.

Common to all: growth or infection tests; agent: Herpes simplex virus 1; cell line: PRK; method: cytopathic effect; read-out: EC50

ECn: concentration that inhibits the pathogen or its effect by n%. Conditions beyond the fields shown may differ between rows.

CSCc1cn([C@H]2C[C@H](O)[C@@H](CO)O2)c(=O)[nH]c1=O ; strain: VEO231 ; value: 10 µg/mL
O=c1[nH]c(=O)n([C@H]2C[C@H](O)[C@@H](COP(=O)(O)O)O2)cc1/C=C/c1cccc([N+](=O)[O-])c1 ; strain: F ; value: >100 µg/mL
Nc1ncnc2c1ncn2C[C@H](O)CO ; strain: KOS ; value: >400 µg/mL
Nc1ncnc2c1ncn2[C@@H]1C[C@H](COP(=O)(O)O)[C@@H](O)[C@H]1O ; value: 200 µg/mL
O=c1[nH]c(=O)n([C@H]2C[C@H](O)[C@@H](CO)O2)cc1/C=C/Br ; strain: KOS ; value: 0.015 µg/mL
O=c1[nH]c(=O)n([C@H]2C[C@H](O)[C@@H](CO)O2)cc1I ; strain: F ; value: 0.1 µg/mL
O=c1[nH]c(=O)n([C@H]2C[C@H](O)[C@@H](CO)O2)cc1CCCl ; strain: KOS ; value: <0.14 µg/mL
O=c1[nH]c(=O)n([C@@H]2O[C@H](CO)[C@@H](O)[C@@H]2O)cc1/C=C/Br ; strain: B2006 (TK-) ; value: >200 µg/mL
CCCc1cn([C@H]2C[C@H](O)[C@@H](CO)O2)c(=O)[nH]c1=O ; strain: KOS ; value: 3 µg/mL
CC(=O)OCCOCn1cnc2c(Cl)nc(Cl)nc21 ; value: 2 µg/mL
C#Cc1cn([C@H]2C[C@H](O)[C@@H](CO)O2)c(=O)[nH]c1=O ; strain: KOS ; value: 0.1 µg/mL
Nc1ccn([C@@H]2C=C(CO)[C@@H](O)[C@H]2O)c(=O)n1 ; strain: KOS ; value: >400 µg/mL
O=c1[nH]c(=O)n([C@H]2C[C@H](O)[C@@H](COP(=O)(O)O)O2)cc1/C=C/c1ccccc1 ; strain: F ; value: 30 µg/mL
CCc1cn([C@H]2C[C@H](O)[C@@H](CO)O2)c(=O)[nH]c1=O ; strain: KOS ; value: 2 µg/mL
Nc1nc2c(ncn2COCCO)c(=O)[nH]1 ; strain: KOS F McIntyre ; value: 0.04 µg/mL
[N-]=[N+]=NCc1cn([C@H]2C[C@H](O)[C@@H](CO)O2)c(=O)[nH]c1=O ; strain: F ; value: 2 µg/mL
Cc1cn([C@@H]2O[C@H](CO)[C@@H](O)[C@@H]2F)c(=O)[nH]c1=O ; strain: KOS ; value: <0.04 µg/mL
Nc1ccn([C@@H]2O[C@H](CO)[C@@H](O)[C@H]2N)c(=O)n1 ; strain: KOS ; value: >200 µg/mL
Nc1ncnc2c1ncn2C[C@@H](CO)OCP(=O)(O)O ; strain: 5 (PAA-resistant) ; value: 0.3 µg/mL
O=c1[nH]c(=O)n([C@H]2C[C@@H](CO)[C@H](O)C2)cc1I ; strain: VMW1837 (TK-) ; value: >400 µg/mL
[N-]=[N+]=N[C@@H]1[C@H](O)[C@@H](CO)O[C@H]1n1ccc(N)nc1=O ; strain: KOS ; value: ≥200 µg/mL
CO[C@H]1[C@H](OC)[C@@H](CO)O[C@H]1n1cnc2c(N)ncnc21 ; value: >100 µg/mL
Nc1nc2c(ncn2COC(CO)CO)c(=O)[nH]1 ; strain: KOS ; value: <0.2 µg/mL
O=C(O)Cc1cn([C@H]2C[C@H](O)[C@@H](CO)O2)c(=O)[nH]c1=O ; strain: KOS ; value: 600 µM
Nc1ncnc2c1ncn2COCCO ; value: 10 µg/mL
COc1ccc2[nH]c3c(c2c1)CCN1OCSCC(N)[C@@H]31 ; strain: KOS ; value: 0.045 µg/mL
Cc1cn([C@H]2O[C@H](CO)[C@@H](N=[N+]=[N-])[C@H]2F)c(=O)nc1N ; strain: KOS ; value: >400 µg/mL
Nc1nc(=O)n([C@H]2C[C@H](O)[C@@H](CO)O2)cc1/C=C\Cl ; strain: KOS ; value: 0.7 µg/mL
CCc1cn([C@H]2C[C@H](O)[C@@H](CO)O2)c(=O)[nH]c1=O ; strain: KOS F McIntyre ; value: 0.7 µg/mL
Nc1ccn([C@@H]2O[C@H](CO)[C@@H](O)[C@@H]2O)c(=O)n1 ; strain: KOS ; value: 0.04 µg/mL
O=c1[nH]c(=O)n([C@H]2C[C@H](O)[C@@H](CO)O2)cc1/C=C/Br ; strain: KOS ; value: <0.007 µg/mL
Nc1ncnc2c1ncn2[C@@H]1O[C@H](COP(=O)(O)O[C@@H]2[C@H](O)[C@@H](COP(=O)(O)OP(=O)(O)OC[C@@H]3OC(O)[C@H](O)[C@H](O)[C@H]3O)O[C@H]2n2cnc3c(N)ncnc32)[C@@H](O)[C@H]1O ; value: >200 µg/mL
[N-]=[N+]=N[C@@H]1[C@@H](OP(=O)(O)OC[C@H]2O[C@@H](n3cnc4c(N)ncnc43)[C@H](OP(=O)(O)OCCOCn3cnc4c(=O)[nH]c(N)nc43)[C@H]2N=[N+]=[N-])[C@H](n2cnc3c(N)ncnc32)O[C@@H]1CO ; strain: McIntyre ; value: 2 µg/mL
O=c1cc(O)ccn1COCCO ; value: >400 µg/mL
CCOC[C@H]1O[C@@H](n2ccc(N)nc2=O)[C@@H](O)[C@@H]1O ; value: >200 µg/mL
NC1CCCON2CCc3c([nH]c4ccccc34)[C@H]12 ; strain: KOS ; value: 2 µg/mL
Nc1ncnc2c1ncn2[C@@H]1O[C@H](COP(=O)(O)O)[C@@H](O)[C@H]1O ; value: >400 µg/mL
O=c1[nH]c(=O)n(COCCO)cc1/C=C/Br ; value: >400 µg/mL
[N-]=[N+]=N[C@H]1[C@H](O)[C@H](n2cnc3c(N)ncnc32)O[C@@H]1CO ; strain: KOS ; value: >200 µg/mL
Nc1ncnc2c1ncn2C[C@H](O)CO ; strain: KOS ; value: 10 µg/mL
O=c1[nH]c(=O)n([C@@H]2OC3COP(=O)(O)OC3[C@H]2O)cc1I ; strain: F ; value: 40 µg/mL
CO[C@H]1[C@H](O)[C@H](n2ccc(N)nc2=O)O[C@@H]1CO ; value: >200 µg/mL
Nc1ncnc2c1ncn2[C@@H]1O[C@H](COP(=O)([O-])OP(=O)([O-])OC[C@@H]2OC(O)[C@H](O)[C@H](O)[C@H]2O)[C@@H](O)[C@H]1O ; value: 15 µg/mL
Nc1nc(=O)n(C2CC(O)C(CO)O2)cc1CCCl ; strain: F ; value: 0.12 µg/mL
Nc1nc(=O)n(COCCO)cc1[N+](=O)[O-] ; value: >400 µg/mL
O=c1[nH]c(=O)n([C@@H]2C[C@H](CO)[C@@H](O)C2)cc1I ; strain: F ; value: 0.07 µg/mL
O=c1[nH]c(=O)n([C@H]2C[C@H](O)[C@@H](CO)O2)cc1/C=C\Cl ; strain: McIntyre ; value: 0.2 µg/mL
Nc1ncnc2c1ncn2[C@H]1C[C@@H](CO)[C@H](O)[C@@H]1O ; value: ≥200 µg/mL
O=c1[nH]c(=O)n([C@H]2C[C@H](O)[C@@H](CO)O2)cc1I ; strain: VDO374 ; value: 0.1 µg/mL
O=c1[nH]c(=O)n(C2CC(CO)[C@H](O)C2)cc1I ; strain: VMW1837 (TK-) ; value: >400 µg/mL
[N-]=[N+]=N[C@H]1[C@@H](F)[C@H](n2cnc3c(N)ncnc32)O[C@@H]1CO ; strain: KOS ; value: >400 µg/mL

For reference, 6 entries again:

{"smiles": "O=c1[nH]c(=O)n([C@H]2C[C@H](O)[C@@H](CO)O2)cc1/C=C/Br", "strain": "KOS", "value": "0.015 µg/mL"}
{"smiles": "Nc1ncnc2c1ncn2[C@H]1C[C@@H](CO)[C@H](O)[C@@H]1O", "value": "≥200 µg/mL"}
{"smiles": "O=c1cc(O)ccn1COCCO", "value": ">400 µg/mL"}
{"smiles": "O=c1[nH]c(=O)n([C@H]2C[C@H](O)[C@@H](CO)O2)cc1/C=C\\Cl", "strain": "McIntyre", "value": "0.2 µg/mL"}
{"smiles": "Nc1nc(=O)n(C2CC(O)C(CO)O2)cc1CCCl", "strain": "F", "value": "0.12 µg/mL"}
{"smiles": "Nc1ncnc2c1ncn2[C@@H]1O[C@H](COP(=O)(O)O[C@@H]2[C@H](O)[C@@H](COP(=O)(O)OP(=O)(O)OC[C@@H]3OC(O)[C@H](O)[C@H](O)[C@H]3O)O[C@H]2n2cnc3c(N)ncnc32)[C@@H](O)[C@H]1O", "value": ">200 µg/mL"}